Test results published in patent US20150158934A1.

Target: gp120IIIB (subgroup B) (HIV-1) (UniProt P04578)
Assay: SPR

## sCD4 4-D (from UniProt P01730 26-390) (receptor; other documents disagree on this pair)
  Kd: 0.86 nM
  koff: 0.000112 s⁻¹
  kon: 130000 M⁻¹ s⁻¹
